ChEMBL document CHEMBL5316329, “Structure-Based Optimization of 2,4,5-Trisubstituted Pyrimidines as Potent HIV-1 Non-Nucleoside Reverse Transcriptase Inhibitors: Exploiting the Tolerant Regions of the Non-Nucleoside Reverse Transcriptase Inhibitors' Binding Pocket” (J Med Chem, 2023)

Biological target: Human immunodeficiency virus type 1 reverse transcriptase (Human immunodeficiency virus 1, UniProt Q72547)
Experiment: Inhibition of wild-type HIV-1 reverse transcriptase assessed as inhibition of biotin-dUTP incorporation

## Cc1cc(C#N)cc(C)c1Oc1nc(Nc2ccc(C#N)cc2)nc(N)c1Br [ETRAVIRINE]
  EC50: 3.55 nM
